Compound potency records, mixed from different reports. Data source: NIAID ChemDB in PubChem.

Shared fields: enzyme or target tests; organism: HIV-1; protein: Reverse transcriptase; endpoint: IC50

Blank or dashed fields: not listed here.

smiles | strain | changes | method | result
C[C@H](CC(=O)C[C@@H](C)[C@H]1CC(=O)[C@@]2(C)C3=C(C(=O)C[C@]12C)[C@@]1(C)CCC(=O)C(C)(C)[C@@H]1C[C@@H]3O)C(=O)O |  |  | RT activity | >250 µM
Nc1ccn([C@H]2CC[C@@H](COP(=O)(O)OP(=O)(O)OP(=O)(O)O)O2)c(=O)n1 |  | RT-L74V | ELISA | 9.4 µM
Cc1c(Cc2c(Cl)cccc2Cl)nc(S(=O)(=O)Cc2ccc(Br)cc2)[nH]c1=O |  | RT-K103N | nucleotide incorporation / radiometric | >400 µM
O=C1OC[C@H]2[C@H](c3ccc(O)c(O)c3)c3cc(O)c(O)cc3C[C@H]12 | HXB2 |  | RT activity | 200 µM
Cc1c(Cc2c(Cl)cccc2Cl)nc(SCc2ccc(C(C)C)cc2)[nH]c1=O |  | RT-181I | nucleotide incorporation / radiometric | >400 µM
C#Cc1ccc(Nc2nccc(Oc3c(C)cc(-c4cn(Cc5ccccc5[N+](=O)[O-])nn4)cc3C)n2)cc1 |  |  | RT activity / ELISA | 0.15 µM
CCc1c(Sc2ccccn2)n(COCc2ccccc2)c(=O)[nH]c1=O | RT-WT |  | RT activity | 0.1 µM
CCCSC(=S)N1CCN(C(=S)Nc2ccccc2)CC1 |  |  | RT activity / ELISA | 21.47 µg/mL
Cc1ncc([N+](=O)[O-])n1CCSC(c1ccccc1)c1ccccc1 | WT |  | nucleotide incorporation / radiometric | 10.64 µM
CN(C)P(=O)(c1ccccc1)c1c(C(N)=O)[nH]c2ccc(Cl)cc12 |  | RT-K103N Y181C |  | >3.57 µM
Cc1c(Cc2c(Cl)cccc2Cl)nc(SCc2ccc(Cl)cc2)[nH]c1=O |  | RT-181I | nucleotide incorporation / radiometric | >400 µM
COc1c2c(cc3c1-c1c(cc4c(c1OC)OCO4)C[C@H](C)[C@H](C)C3)OCO2 |  |  | nucleotide incorporation | 100 µM
Cc1c(Cc2c(Cl)cccc2Cl)nc(S(=O)(=O)Cc2ccc([N+](=O)[O-])cc2)[nH]c1=O | WT |  | nucleotide incorporation / radiometric | >400 µM
O=C1CSC(c2c(F)cccc2F)N1c1cccc(Br)n1 |  |  | nucleotide incorporation / radiometric | 0.91 µM
CC1Oc2cc(O)c3c(=O)c4ccc(O)c(O)c4oc3c2C1(C)C |  |  | RT activity / radiometric | 153 µM
Nc1nc2c(ncn2[C@H]2CC[C@@H](COP(=O)(O)OP(=O)(O)OP(=O)(O)O)O2)c(=O)[nH]1 |  |  | nucleotide incorporation | 0.011 µM
Fc1cccc(F)c1[C@H]1SCc2nc3ccccc3n21 |  |  | nucleotide incorporation | 14.2 µM
Cc1cccc(NC(=S)N[C@@H](C)c2cccc3ccccc23)n1 |  |  | nucleotide incorporation | >100 µM
C[C@H]1[C@H](C)Oc2c3c(c4c(-c5ccccc5)cc(=O)oc4c2[C@H]1O)OC(C)(C)C=C3 |  |  | nucleotide incorporation | 0.81 µM
Cc1cc(/C=C/C#N)cc(C)c1Oc1ccnc(S(=O)(=O)CC(=O)Nc2ccc(F)cc2)n1 |  |  | RT activity / fluorescence | 0.197 µM
C=C1[C@H](CO)[C@@H](O)C[C@@H]1n1cnc2c(=O)[nH]c(N)nc21 |  |  | RT activity / ELISA | 1.35 µM
CCOCn1c([Se]c2ccccc2)c(CC)c(=O)[nH]c1=O |  |  |  | 5.1 µM
Cc1cc(-c2ccc(C#N)cc2)cc(C)c1Oc1ccnc(S(=O)(=O)CC(=O)Nc2ccc(C#N)cc2)n1 |  |  | RT activity / fluorescence | 0.142 µM
CN1CCN(C(=O)COc2ccc(NC(=O)CSc3nnnn3-c3ccc(C(C)(C)C)cc3Cl)c(Cl)c2)CC1 | WT |  | PicoGreen / fluorescence | <1 µM
C#Cc1ccc(Nc2nccc(Oc3c(C)cc(-c4cn(Cc5ccc(S(N)(=O)=O)cc5)nn4)cc3C)n2)cc1 |  |  | RT activity / ELISA | 0.11 µM
O=C1c2c(O)cc(O)cc2O[C@H](c2ccc(O)cc2)[C@H]1c1c(O)cc(O)c2c(=O)cc(-c3ccc(O)c(O)c3)oc12 |  |  | RT activity / radiometric | 112 µM
C#Cc1ccc(Nc2nccc(Oc3c(C)cc(-c4cn(Cc5cccc(C(=O)OC)c5)nn4)cc3C)n2)cc1 |  |  | RT activity / ELISA | 0.22 µM
CC(=O)OC1C(=O)C2=C(C(=O)CC3C(C)(C)[C@@H](O)CC[C@]23C)[C@]2(C)[C@H](O)C[C@H]([C@H](C)CC(=O)CC(C)C(=O)O)[C@@]12C |  |  | RT activity | >250 µM
CC(C)=CCN1Cc2cccc3[nH]c(=S)n(c23)C[C@@H]1C |  | RT-L100I | RT activity | >20 µM
CCc1c(Sc2ccccn2)n(COCc2ccccc2)c(=O)[nH]c1=O |  | RT-V106A |  | 38 µM
Cc1c(Cc2c(F)cccc2F)nc(SCc2ccc([N+](=O)[O-])cc2)[nH]c1=O | WT |  | nucleotide incorporation / radiometric | >400 µM
CC(C)=CCN1Cc2cccc3[nH]c(=S)n(c23)C[C@@H]1C |  |  | nucleotide incorporation | 6 µM
Nc1nc2c(ncn2[C@H]2CO[C@@H](COP(=O)(O)OP(=O)(O)OP(=O)(O)O)O2)c(=O)[nH]1 |  |  |  | 0.062 µM
C=C/C=C(\C=C/Cc1c2nc(c(-c3ccc(S(=O)(=O)NCCN(CC)CC)cc3)c3ccc([n-]3)c(C/C=C\C(=C/C=C)S(=O)(=O)NCCN(CC)CC)c3ccc([n-]3)c(-c3ccc(S(=O)(=O)NCCN(CC)CC)cc3)c3nc1C=C3)C=C2)S(=O)(=O)NCCN(CC)CC.[O]=[V+2] |  |  | ELISA | <50 µM
COc1cc(CSc2nc(Cc3c(Cl)cccc3Cl)c(C)c(=O)[nH]2)cc(OC)c1 |  | RT-K103N | nucleotide incorporation / radiometric | >400 µM
Cc1cc(O)c2c(c1F)C(=O)C=CC2=O |  |  | RT activity | 13 µg/mL
Nc1nc(=O)n([C@H]2C=C[C@@H](COP(=O)(O)OP(=O)(O)OP(=O)(O)O)O2)cc1F |  |  |  | 0.28 µM
COc1ccc(CSc2nc(Cc3c(Cl)cccc3Cl)c(C)c(=O)[nH]2)cc1OC |  | RT-181I | nucleotide incorporation / radiometric | >400 µM
CCOc1cc(C)c(Cl)c2c1C(=O)C=CC2=O |  |  | RT activity | 22 µg/mL
COc1ccc(C(C)=O)c(O)c1[C@H]1C[C@H]1NC(=S)Nc1ccc(Cl)cn1 |  |  | ELISA | 0.24 µM
C[C@H](CC[C@H](O)C(C)(O)CO)[C@H]1CC[C@@]2(C)C3=CC[C@H]4C(C)(C)C(=O)CC[C@]4(C)C3=CC[C@]12C |  |  | RT activity | >250 µM
CCCCCCCCCCCCCCCCCCCCCCC(=O)O[C@@H]1[C@@H](C)[C@@]2(O)[C@@H](C=C(COC(C)=O)C[C@]3(O)C(=O)C(C)=C[C@@H]23)[C@@H]2C(C)(C)[C@]12O |  |  | RT activity / absorbance | >67.5 µM
Nc1ncnc2c1ncn2[C@H]1CC[C@@H](COP(=O)(O)OP(=O)(O)OP(=O)(O)O)O1 |  | RT-L74V T215Y K219Q | ELISA | 35.9 µM
COc1cc2c(c(OC)c1OC)-c1c(cc3c(c1OC)OCO3)C[C@H](C)[C@H](C)C2 |  | Y188L | nucleotide incorporation | 95 µM
CC(=O)O[C@H]1C2(C=O)C(C=O)=CC[C@@]1(C)CCC2[C@H](C)CCC=C(C)C |  |  | nucleotide incorporation / radiometric | >100 µM
CCc1c([Se]c2ccccn2)n(COCc2ccccc2)c(=O)[nH]c1=O | RT-WT |  | RT activity | 0.07 µM
c1ccc(C2SCc3nc4ccccc4n32)cc1 |  |  |  | ~45 µM
Cc1c(Sc2ccccc2)n(COCCO)c(=O)[nH]c1=O |  |  | nucleotide incorporation | 0.3 µM
C[C@@H](NC(=S)Nc1nccs1)c1cccc2ccccc12 |  |  | nucleotide incorporation | 12 µM
C#Cc1ccc(Nc2nccc(Oc3c(C)cc(-c4cn(Cc5cccc([N+](=O)[O-])c5)nn4)cc3C)n2)cc1 |  |  | RT activity / ELISA | 0.24 µM
Cc1cc(O)c2c(c1)C(=O)C(c1c(C)cc3c(c1O)C(=O)C=CC3=O)=CC2=O |  |  | RT activity | >100 µg/mL
Cc1cccc2sc(NC(=S)N[C@@H](C)c3cccc4ccccc34)nc12 |  |  | nucleotide incorporation | >100 µM
C#C[C@]1(COP(=O)(O)OP(=O)(O)OP(=O)(O)O)CC[C@@H](n2ccc(N)nc2=O)O1 |  | RT-M184V | nucleotide incorporation / radiometric | >1 µM
Cc1cn([C@@H]2O[C@H](CO[Si](C)(C)C(C)(C)C)C3(OS(=O)(=O)C=C3N)[C@H]2O[Si](C)(C)C(C)(C)C)c(=O)n(C)c1=O |  |  | nucleotide incorporation | 0.99 µM
C[C@H](NC(=S)Nc1nccs1)c1cccc2ccccc12 |  |  | nucleotide incorporation | >100 µM
Cc1cn([C@H]2C[C@H](F)[C@@H](COP(=O)(O)OP(=O)(O)OP(=O)(O)O)O2)c(=O)[nH]c1=O |  |  |  | 0.035 µM
C#Cc1ccc(Nc2nccc(Oc3c(C)cc(-c4cn(Cc5ccc(O)cc5)nn4)cc3C)n2)cc1 |  |  | RT activity / ELISA | 0.04 µM
CC(C)C(C)/C=C/[C@@H](C)[C@H]1CCC2C3=C[C@@H](O)[C@@]4(O)C[C@@H](O)CC[C@]4(C)C3CC[C@@]21C |  |  | RT activity | >250 µM
Cc1cc(O)c2c(c1)C(O)C=CC2=O |  |  | RT activity | >100 µg/mL
Cc1c(-c2cnccn2)ssc1=S | IIIB |  | fluorescence | ~38 µM
C#Cc1ccc(Nc2nccc(Oc3c(C)cc(-c4cn(CCC(=O)OC)nn4)cc3C)n2)cc1 |  |  | RT activity / ELISA | 0.14 µM
Cc1cccc(NC(=S)N[C@H](C)c2cccc3ccccc23)n1 |  |  | nucleotide incorporation | 1.03 µM
Cc1cc(O)c2c(c1)C(=O)C=CC2=O |  |  | RT activity | 6 µg/mL
COc1cc(-c2ccccc2)c(OC)c(OC)c1O |  |  | RT activity / radiometric | 202.5 µM
CCOCn1c([Se]c2ccccc2)c(F)c(=O)[nH]c1=O |  |  |  | >100 µM

Again, the opening 4 rows:

smiles | strain | changes | method | result
C[C@H](CC(=O)C[C@@H](C)[C@H]1CC(=O)[C@@]2(C)C3=C(C(=O)C[C@]12C)[C@@]1(C)CCC(=O)C(C)(C)[C@@H]1C[C@@H]3O)C(=O)O |  |  | RT activity | >250 µM
Nc1ccn([C@H]2CC[C@@H](COP(=O)(O)OP(=O)(O)OP(=O)(O)O)O2)c(=O)n1 |  | RT-L74V | ELISA | 9.4 µM
Cc1c(Cc2c(Cl)cccc2Cl)nc(S(=O)(=O)Cc2ccc(Br)cc2)[nH]c1=O |  | RT-K103N | nucleotide incorporation / radiometric | >400 µM
O=C1OC[C@H]2[C@H](c3ccc(O)c(O)c3)c3cc(O)c(O)cc3C[C@H]12 | HXB2 |  | RT activity | 200 µM

ICn is the concentration giving n% inhibition. Rows are shuffled and stem from different studies.